From US20240353338A1 (priority 2023, published 2024)

Target: SARS-CoV-2 M^pro (Severe acute respiratory syndrome coronavirus 2, UniProt P0DTD1)
Experiment: TRIP screening of M^pro inhibitor binding and binding strength/affinity

C[C@@H](OC(C)(C)C)[C@H](NC(=O)OCc1ccccc1)C(=O)N[C@@H](CC1CCCCC1)C(=O)N[C@H](C=O)C[C@@H]1CCNC1=O [MPI8]
binding strength/affinity by TRIP (total change in phenylalanine peak), compared among ligands: substantially higher efficiency in binding and dimerizing the protease
